Results: patent US8722616B2, “Anti-HIV peptides and methods of use thereof” (priority 2009, dated 2014)

Test system: HIV-1IIIB
Conditions: TI=TC50/EC50
Description: (§1) Anti-HIV cytopathic effect inhibition assays were conducted as described (Buckheit et al. (1995) Antimicrob. Agents Chemother., 39:2718-2727). In brief, serially diluted peptides were added to a 96-well round bottom microtiter plate in triplicate. CEM-SS cells at a concentration of 2.5×10^3 cells per well and HIV-1IIIB at the appropriate pre-determined titer were sequentially added to the microtiter plate. The cultures were incubated at 5% CO2/37° C. for six days. Following the incubation, the microtiter plates were stained with XTT tetrazolium dye to evaluate the efficacy and toxicity of the test compound(s).
as §1, with “Cytopathic Effect (CPE) Inhibition Assay: The CPE assay was performed” for “Anti-HIV cytopathic effect inhibition assays were conducted”, “as previously” for “as”, “Briefly,” for “In brief,”, “compound was” for “peptides were”

Molecule	TI (Table 1)	other results
Cc1cn([C@H]2C[C@H](N=[N+]=[N-])[C@@H](CO)O2)c(=O)[nH]c1=O [AZT, reference compound]	>55.6	TI (Table 2): >71.4; TI (Table 3): >71.4
GLRSRIWLWVLLMIWQESNRFKRM [DRS S9r3]		therapeutic index (TI): ~26
H-GFKDLLKGAAKALVKTVLF-NH2 [Ascaphin-8, reference compound]	2.4	
HVDKKVADKVLLLKQLRIMRLLTRL [Spinigerin, reference compound]	>10.9	
IWLTALKFLGKHAAKHLAKQQLSKL [Lycotoxin I, reference compound]	<0.07	
LLGDLLRKSKEKIGKEFKRIVQRIKDFLRNLVPRTES [LL-37, reference compound]		therapeutic index (TI): approximately 11
SKEKIGKEFKRIVQRIKDFLR [SK-21]		TI (Table 4): 2.08
SWKSMAKKLKEYMEKLKQRA [Latarcin 3a, reference compound]	>1.23	
VFQFLGRIIHHVGNFVHGFSHVF [Clavanin B, reference compound]	>5.18	

Read-outs that look alike come from different tables or passages of the source. No end group written: not given here.
